Test system: primary human hepatocytes

Aflatoxin B1 was tested, and the “Cytotoxicity in BioActivator hepatocytes at end of co-culture (in words)” value was “LC50 responses”.

Source: patent publication US11376580B2, “Methods and systems comprising modified pipettes for transferring and preserving biomaterial” (UNIVERSITY OF PITTSBURGH—OF THE COMMONWEALTH SYSTEM OF …, priority 2017, dated 2022)
